PubChem BioAssay AID504761 | Drosophila RNAi Screening Center, 2011
In all, the deposit lists about 22,000 reagents; this is an unselected part of those with a known target gene and a result. Over the whole deposit, 116 (0.52%) are marked active. 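Calls depend on retest data that are not deposited; infection was ranked per plate without normalising between plates; the unit of the infection score is not given.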 Raw values are not corrected between plates. A plus sign joins genes that one reagent is predicted to hit. Not given: the amount of reagent, the time to read-out.

Purpose: 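Insect host genes that dengue virus relies on to spread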 (primary screen)
Cells: D.Mel-2 cells from Drosophila
Reagents: long dsRNA against Drosophila genes
Challenge: infection with dengue virus type 2; dose and infection time not stated
Measurement: 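Per well on two replicate plates, imaging gave the percent of cells positive for viral envelope protein, ranked by infection, and a nuclear count of cells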
Reading the numbers: infection score: higher = more virus-infected cells; cell count: higher = more cells in the well
Rule for the call: 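Very low infection ranking in both replicate wells (chance probability at most 0.065), then a retest showing infection dropped 1.5-fold or more at p below 0.05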
Meaning of the calls: active = confirmed: knock-down lowers infection; inactive = not picked or not confirmed

| target | amplicon | infection score, replicate 1 | infection score, replicate 2 | cell count, replicate 1 | cell count, replicate 2 | call |
| --- | --- | --- | --- | --- | --- | --- |
| Cpr57A + Obp57d | DRSC06708 | 10.2 | 16.8 | 5947 | 4865 | inactive |
| Cpr57A + Obp57d | DRSC22719 | 4.88 | 3.03 | 6967 | 6672 | inactive |
| CheA87a (GeneID 41642) | DRSC14839 | 1.38 | 33.7 | 6594 | 5936 | inactive |
| CG17059 (GeneID 50227) | DRSC06654 | 14.4 | 3.94 | 5691 | 6973 | inactive |
| AGO1 (GeneID 36544) | DRSC05912 | 28.3 | 11.6 | 3767 | 3984 | inactive |
| Drsl5 (GeneID 38409) | DRSC08159 | 3.17 | 3.29 | 6333 | 5645 | inactive |
| CG14708 (GeneID 41383) | DRSC14930 | 11.6 | 7 | 5414 | 6147 | inactive |
| CG14708 (GeneID 41383) | DRSC25906 | 11.5 | 1.29 | 6495 | 6601 | inactive |
| Leash (GeneID 41320) | DRSC15617 | 4.66 | 3.6 | 6497 | 6948 | inactive |
| Leash (GeneID 41320) | DRSC28712 | 21.4 | 13.1 | 4758 | 5593 | inactive |
| BomBc2 (GeneID 37102) | DRSC06502 | – | 2.91 | 537 | 824 | inactive |
| BomBc2 (GeneID 37102) | DRSC29859 | 35.5 | 6.34 | 5959 | 6402 | inactive |
| CG16837 (GeneID 37904) | DRSC04283 | 2.96 | 14.2 | 6970 | 5085 | inactive |
| CG16837 (GeneID 37904) | DRSC26178 | 4.65 | 10.6 | 2602 | 5476 | inactive |
| CG32988 (GeneID 318274) | DRSC02692 | 4.41 | 2.71 | 6605 | 6741 | inactive |
| FipoQ (GeneID 43475) | DRSC15413 | 6.85 | 3.79 | 6092 | 6063 | inactive |
| FipoQ (GeneID 43475) | DRSC24515 | 1.43 | 4.97 | 701 | 5850 | inactive |
| Or67a (GeneID 39109) | DRSC11240 | 2.89 | 2.64 | 6086 | 6097 | inactive |
| Arl4 (GeneID 43771) | DRSC17156 | 5.06 | – | 1423 | 431 | inactive |
| CG31804 (GeneID 318951) | DRSC22728 | 3.67 | 5.15 | 6722 | 6911 | inactive |
| Prosalpha4 (GeneID 32584) | DRSC20271 | 10.3 | 9.6 | 5652 | 5374 | inactive |
| Prosalpha4 (GeneID 32584) | DRSC25287 | 1.81 | 8.75 | 6579 | 5727 | inactive |
| Orc5 (GeneID 34794) | DRSC03390 | 1.51 | 1.11 | 6283 | 6492 | inactive |
| Orc5 (GeneID 34794) | DRSC28207 | 34.2 | 9.34 | 4233 | 1039 | inactive |
| Obp19d (GeneID 33040) | DRSC20569 | 15 | 5.32 | 5829 | 5205 | inactive |
| CG30471 (GeneID 246633) | DRSC07096 | 21.1 | 9.97 | 5656 | 3672 | inactive |
| Tektin-A (GeneID 34934) | DRSC01921 | 8.91 | 8.53 | 6339 | 6285 | inactive |
| Cap-G (GeneID 36440) | DRSC06652 | 6.26 | 4.81 | 6728 | 6565 | inactive |
| Cap-G (GeneID 36440) | DRSC06653 | 6.93 | 10.8 | 6303 | 6818 | inactive |
| Cap-G (GeneID 36440) | DRSC21805 | 5.48 | 2.32 | 3123 | 2157 | inactive |
| CG13311 (GeneID 39008) | DRSC09982 | 0.74 | 2.37 | 6595 | 5941 | inactive |
| Veneno (GeneID 41000) | DRSC16537 | 3.31 | 2.86 | 6437 | 6859 | inactive |
| PH4alphaNE1 (GeneID 43625) | DRSC16546 | 3.62 | 3.11 | 5995 | 6371 | inactive |
| PH4alphaNE1 (GeneID 43625) | DRSC26942 | 2.41 | 2.72 | 6345 | 6468 | inactive |
| CG15649 (GeneID 37371) | DRSC04240 | 8.97 | 6.86 | 6463 | 2275 | inactive |
| CG15649 (GeneID 37371) | DRSC29626 | 26.9 | 27.2 | 4827 | 4522 | inactive |
| CG8547 (GeneID 36586) | DRSC07211 | 10.6 | 18.8 | 5989 | 6210 | inactive |
| CG8547 (GeneID 36586) | DRSC28818 | 16.1 | 15.6 | 4842 | 2842 | inactive |
| CG14089 (GeneID 40101) | DRSC10093 | 2.55 | 1.09 | 6396 | 6218 | inactive |
| CG14089 (GeneID 40101) | DRSC24848 | 0.92 | 2.02 | 6335 | 6078 | inactive |
| E5 (GeneID 45396) | DRSC13000 | 2.35 | 2.35 | 5563 | 5482 | inactive |
| E5 (GeneID 45396) | DRSC23157 | 0.88 | 6.43 | 6575 | 6767 | inactive |
| E5 (GeneID 45396) | DRSC28326 | 6.61 | 12.5 | 2133 | 6038 | inactive |
| Gp150 (GeneID 37549) | DRSC04618 | 0.95 | 2.3 | 6741 | 6969 | inactive |
| Gp150 (GeneID 37549) | DRSC29033 | – | 12.5 | 316 | 1575 | inactive |
| Rtnl2 (GeneID 40903) | DRSC12609 | 5.71 | 12.7 | 6672 | 2497 | inactive |
| Rtnl2 (GeneID 40903) | DRSC21655 | 1.59 | 3.2 | 6106 | 6313 | inactive |
| Rtnl2 (GeneID 40903) | DRSC26022 | 10.6 | 3.51 | 5967 | 6291 | inactive |
| numb (GeneID 34263) | DRSC03584 | 20.1 | 15.1 | 5719 | 6124 | inactive |
| CG6012 (GeneID 35022) | DRSC02921 | 7.32 | 4.9 | 2282 | 6085 | inactive |
| CG15209 (GeneID 32011) | DRSC19655 | 11 | 11.6 | 6446 | 6097 | inactive |
| CG15546 (GeneID 43659) | DRSC15084 | 3.64 | 2.35 | 5997 | 6798 | inactive |
| CG15546 (GeneID 43659) | DRSC22831 | 2.16 | 1.07 | 5983 | 6851 | inactive |
| CG15546 (GeneID 43659) | DRSC28899 | 11 | 16.2 | 6341 | 5829 | inactive |
| Irbp (GeneID 117419) | DRSC17007 | 2.02 | 8.25 | 6597 | 6896 | inactive |
| Irbp (GeneID 117419) | DRSC23317 | 4.12 | 4.3 | 6335 | 6518 | inactive |
| Irbp (GeneID 117419) | DRSC29386 | 12.8 | 10.1 | 4230 | 4585 | inactive |
| CG7335 (GeneID 40203) | DRSC10816 | 2.09 | 4.87 | 6780 | 6443 | inactive |
| CG7335 (GeneID 40203) | DRSC26314 | 12.9 | 4.32 | 6284 | 6225 | inactive |
| dnt (GeneID 35207) | DRSC03522 | 10.6 | 5.9 | 6684 | 6220 | inactive |
| dnt (GeneID 35207) | DRSC25886 | 0.98 | 4.13 | 6109 | 6157 | inactive |
| ChT (GeneID 42245) | DRSC16296 | 10.4 | 2.64 | 5996 | 6440 | inactive |
| hdm (GeneID 31705) | DRSC18013 | 2.63 | 4.35 | 6353 | 6200 | inactive |
| CG3168 (GeneID 31612) | DRSC18287 | 3.82 | 3.99 | 864 | 6614 | inactive |
| CG3168 (GeneID 31612) | DRSC25481 | 1.75 | 1.75 | 6012 | 5944 | inactive |
| CG42541 (GeneID 31344) | DRSC17973 | 1.09 | 3.19 | 6712 | 5710 | inactive |
| CG42541 (GeneID 31344) | DRSC18120 | 1.58 | 6.81 | 6756 | 5716 | inactive |
| CG42541 (GeneID 31344) | DRSC25318 | 3.55 | 4.53 | 5798 | 5921 | inactive |
| CG42541 (GeneID 31344) | DRSC25441 | 2.46 | 2.46 | 6304 | 6412 | inactive |
| l(3)04053 (GeneID 46158) | DRSC11640 | 5.18 | 12.4 | 5980 | 5900 | inactive |
| CG9121 (GeneID 33732) | DRSC03142 | 2.31 | 14.7 | 6376 | 6109 | inactive |
| DCP1 (GeneID 37790) | DRSC04091 | 18.7 | 15.9 | 5686 | 4478 | inactive |
| DCP1 (GeneID 37790) | DRSC29844 | 1.56 | 15.8 | 6785 | 5638 | inactive |
| Nprl2 (GeneID 32677) | DRSC20153 | 3.35 | 3.78 | 6114 | 6191 | inactive |

Ordered by “cell count, replicate 2” (high to low): some entries from above.
| target | amplicon | infection score, replicate 1 | infection score, replicate 2 | cell count, replicate 1 | cell count, replicate 2 | call |
| --- | --- | --- | --- | --- | --- | --- |
| PH4alphaNE1 (GeneID 43625) | DRSC26942 | 2.41 | 2.72 | 6345 | 6468 | inactive |
| PH4alphaNE1 (GeneID 43625) | DRSC16546 | 3.62 | 3.11 | 5995 | 6371 | inactive |
| CG8547 (GeneID 36586) | DRSC07211 | 10.6 | 18.8 | 5989 | 6210 | inactive |
| CG15649 (GeneID 37371) | DRSC29626 | 26.9 | 27.2 | 4827 | 4522 | inactive |
| CG15649 (GeneID 37371) | DRSC04240 | 8.97 | 6.86 | 6463 | 2275 | inactive |
